# From BindingDB's records for 9111301 (Institute of Cancer Research, 1997)
# Amino acid sequences for entries named in this document (tags omitted). Residues count along the entry.
# UniProt Q8X6S1, 1-240: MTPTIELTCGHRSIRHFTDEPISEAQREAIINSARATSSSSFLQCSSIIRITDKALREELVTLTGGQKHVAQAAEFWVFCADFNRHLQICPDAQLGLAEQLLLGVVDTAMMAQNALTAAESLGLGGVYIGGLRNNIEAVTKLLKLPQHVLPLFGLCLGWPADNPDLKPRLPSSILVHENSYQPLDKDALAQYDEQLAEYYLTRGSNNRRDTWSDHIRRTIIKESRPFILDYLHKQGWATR
# Biological target: Nitroreductase NfsA (Escherichia coli O157:H7, UniProt Q8X6S1)
# Test: Cytotoxicity in T79-A3 (NR-positive) cell lines
structure (smiles),measurement,value
O=[N+]([O-])c1cnc(N(CCCl)CCCl)s1,IC50,207 µM
